Assay results: US20080207537A1, “Topical Ungual Formulations” (priority 2005, published 2008)
Some entries repeat one wording, which the source may state once for all of them.

Test: Nail swelling study (weight increase of nail clippings immersed in penetration enhancer solution)
Set-up: species or system human
Settings: for nail weight after 20 h: ANOVA (FIG. 6); for weight of the nail clippings after 20 h compared to the control: ANOVA, n=10 (FIG. 1); for physical change in appearance of treated nails: compared to controls

| SMILES | nail weight after 20 h (1% DTT compared to 5% DTT) | nail weight after 20 h (DTT concentration increases between 5-10%) | weight of the nail clippings after 20 h compared to the control (single penetration enhancer) | physical change in appearance of treated nails (single penetration enhancer) | increase in nail weight (single penetration enhancer, 5% TA, 20 h (maximum of the single enhancers, FIG. 1)) [%] | nail weight increase after 20 h (urea-H2O2, increasing concentrations between 20% and 35% H2O2, ANOVA (FIG. 5)) |
| --- | --- | --- | --- | --- | --- | --- |
| O[C@@H](CS)[C@@H](O)CS (racemic) [DTT, 1,4-dithio-DL-threitol] | significant weight increase | no significant effect | significantly increased |  |  |  |
| O=C(O)CO [Glycolic acid] |  |  | significantly increased | softer than the controls and also lighter in colour |  |  |
| OO [Hydrogen peroxide] |  |  | significantly increased | softer than the controls and also lighter in colour |  |  |
| O=C(O)CS [Thioglycolic acid] |  |  | significantly increased | softer than the controls and also lighter in colour | 71 |  |
| NC(N)=O.OO [Urea hydrogen Peroxide, Urea hydrogen peroxide addition compound] |  |  | significantly increased |  |  | no significant difference |
